In this assay the test system is Clostridium perfringes ATCC 13124. It counts as cell-based. The following applies: anaerobe, ~10^5 organisms per spot, 37° C., ~48 hours. Here is the method: Fast atom bombardment mass spectra were measured on a Kratos MS-50 mass spectrometer. Ultraviolet spectra were recorded on a Perkin-Elmer Lambda 3B UV-visible spectrophotometer and infrared spectra on a Nicolet model 60SX FT-IR attached to a Nicolet computer. NMR spectra were acquired on either a General Electric GN500 or GN300 spectrometer. […] Rf values reported were acquired on Analtech TLC plates developed with chloroform:methanol (9:1, v:v) and were visualized using ceric sulfate spray reagent. Melting points were determined on a Hoover Unimelt and are reported uncorrected. Minimal inhibitory concentrations were determined by twofold agar dilution. Brain heart infusion agar was used for aerobes and Wilkins-Chalgren agar for anaerobes.
For primary screening of compounds of the invention against anaerobic bacteria such as Clostridium, minimal inhibitory concentrations (MICs) were determined by the following agar dilution method: Series of two-fold dilutions of the test compounds were added to Wilkins-Chalgren agar. The agar plates were inoculated with approximately 10^5 organisms per spot of each of the organisms to be tested. The inoculated agar plates were then incubated at 37° C. for approximately 48 hours. The MICs were determined as the minimal concentration of test compound (in […]) that inhibited visible growth.

Values after ≈ are worked out from the molar mass of the structure shown.

Turning to `CCc1c(Cl)c(O)c(Cl)c(O)c1C(=O)O[C@H]1[C@H](O)[C@H](OC)[C@H](OC/C2=C\C=C\C[C@H](O)/C(C)=C/[C@H](CC)[C@@H](O[C@@H]3OC(C)(C)[C@@H](OC(=O)C(C)C)[C@H](O)[C@@H]3O)/C(C)=C/C(C)=C/C[C@@H]([C@@H](C)O)OC2=O)O[C@@H]1C` [Tiacumicin B, tiacumicin B, reference compound], the minimum inhibitory concentration (MIC) (commonly the least concentration at which growth counts as inhibited) is 0.06 µg/mL (≈ 0.0567 µM).

Values taken from patent US5767096A, “Bromotiacumicin compounds” (Abbott Laboratories, priority 1996, dated 1998).
